Data reported in the supplement of paper PMC9931576.
Human monoclonal antibodies against the spike receptor-binding domain (heavy:light variable regions). IC50 against pseudoviruses bearing the spike of naturally observed variants; lower = stronger; >10 µg/ml means not reached at the top dose. No active / inactive call. The stated detection limit is 0.0005 µg/ml; values near or below 0.001 µg/ml lie at the floor of the assay.

B1: BD56-1816 (protein)
chain 1: EVHLVQSGAEVKKPGESLRISCQASGYTFTNYWITWVRQMPGKGLEWMARIDPRDSESKYSPTFQGHVTMSIDKSIRTVYLQWTRLKASDSGIYYCARHAIESSGWDGQFGPWGQGTLVTVSS
chain 2: SYELTQPPSVSVSPGQTARITCSGDAFPNQYVYWYQQKPGQAPVLIIFEDTERPSGIPERFSGSTSGTRVTLTISGVQVEDEADYYCLSADSSGALFGGGTKLTVL
B2: BD56-1817 (protein)
chain 1: QVQLQESGPGLVKPSQTLSLTCSVSGGSISSGTYYWSWIRQSAGKGLEWIGRIYTSESINYNSSFKGRVTISVDTSKNQFSLKLSSVTAADTAVYYCACGGDFRYFDLWGRGTQVTVTS
chain 2: NFMLTQPHSVSESPGKTVTISCTRNIGSVASNFVQWYQLRPGSAPTTIIYEDNQRPSGVPDRFSGSIDSFSNSASLTISGLKTEDGADYYCQSYDSGNVLFGGGTKLTVL
B3: BD56-1818 (protein)
chain 1: HLQLQESGPGLVKPSETLSLTCTVSDGSISSRSYYWGWIRQPPGKGLEWIGTIFHTGSTYYNPSLKSGVTLSLDTSKNQFSLKLTSVTAADTAVYYCARLLRASGWFDPWGQGTLVTVSS
chain 2: EIVMTQSPDSLAVSLGERATINCKSSHSLLYNSNNKDYLAWYQQKPGQPPRLLIYWASTRESGVPDRFSGSGSGTDFTLTISSLQAEDVAVYYCQQYYNTLPLTFGGGTKVEIK
B4: BD56-1819 (protein)
chain 1: QVQLVQSGAEVKRPGSSVKVSCKASGGTFSSYPMSWVRQAPGHGLEWMGKIIPILGITHYAQKFQDRVTITADKSTSTTYMELGSLRSEDTAVYYCARVGGYSSGGAADYFDLWGQGTLVTVSS
chain 2: QSVLTQPPSVSGAPGQRVTISCTGSNSNIGAGYDVHWYQQLPGTAPKLLISGNSNRPSGVPDRFSGSNSGTSASLAITGLHAEDEADYYCQSYDSSLSDVIFGGGTTLTVL
B5: BD56-1829 (protein)
chain 1: EVQLVESGGGLVQPGGSLKLSCAVSGFTFNNFEMNWVRQAPGKGLEWIAYISRSGSSIQYADSVKGRFSISRDNAKNSLYLQMNSLRAEDTAVYYCARVLYYYGSGTMSHWGQGTLVTVSS
chain 2: DIQMTQSPSSLSASVGDRLTITCRASQTINSFLNWYQQKPGKAPNLLIYATSTLHSGVPSRFSGSGSGTDFTLTISSLQPEDFATYYCQQSYSVPPTFGGGTKVDLK
B6: BD56-1832 (protein)
chain 1: EVQLLESGGALVQPGGSLNLSCAASGFTFSNYAMVWLRQAPGKGLEWVSGISGSGTDTFYAESVKGRFTISRYNSKNTLYLQMNSLRVEDTAIYYCAKGELLWFGELLNGWFDPWGQGTLVTVSS
chain 2: DVQMTQSPSSLSTSVGDRVTITCRAGQNINNYLNWYQHKPGKAPKLLIYAASSLQSGVPSRFSGSGSGTDFTLTISSLQPEDFATYYCQEFYSSQYTFGQGTKLEIK
B7: BD56-1839 (protein)
chain 1: QVQLVQSGAEVKKPGSSVKVSCKASGGTFPRHAFNWVRQAPGQGLEWMGRVSPILGIPQYAQNFQGTVTITADTSTSTAYMELSSLRSEDTAVYFCATAKFDDASGSYHDAFDGWGQGTLVTVSS
chain 2: DIQMTQSPSTLAASVGDRVTITCRASQRINNWLAWYQQKPGKAPNLLIYDASTLESGVPSRFSGGGSGTEFTLTISSLRPDDFATYYCQQYESYSPLTFGGGTKVEIK
B8: BD56-1841 (protein)
chain 1: EVQLVESGGGLVKPGGSRRLSCAASGFTFSSYSMNWVRQAPGKGLEWVSSISSTSDFKNYADSVKGRFTISRDNAKNSLYLQMNSLRAEDTALYYCARDADVVVVAASSRGLGYYYGLDVWGQGTTVTVSS
chain 2: DIQMTQSPSSLSASVGDSVTITCRASQSISKYLNWYQQKPGKAPKLLIYAASSLQSGVPSRFSGSGSGTDFTLTISSLQPEDFATYYCQQSYTIPPITFGQGTRLEIK
B9: BD56-1842 (protein)
chain 1: EVQLMESGGKLVQPGRSLRLSCAASGFAFGDYAIHWVRQAPGKSLEWISGINWNKDPIRYADSVKGRFTISRDNAKNSLFLQMDSLRVEDTALYYCAKDIGRFIYGEAFDIWGQGTMVTVSS
chain 2: DIQMTQSPSSLSASVGDRVTITCRASQNIASYLNWYQLKPGRAPKLLISATSSLQSGVPSRFSGSGSGTDFTLTISSLQPEDFATYSCQQSYSTLVFTFGPGTKVEIK
B10: BD56-1843 (protein)
chain 1: QVQLVQSGAEVKKPGSSVKVSCKASGGTFNLYAISWVRQAPGQGLEWMGRIIPLNGIANYAQKFQGRLTITADKSTSTSYMDLSSLRSHDTAVYYCTRSTLAAAGVSVVDAFDIWGQGTMIAVSS
chain 2: DIQMTQSPSTLSASVGDRVTITCRASQRINSWLAWYQQHPGKAPKLLIYDASSLQSGVPPRFSGSGAGTEFTLTISSLQPDDFATYYCQQYESYSPITFGGGTKVEMK
B11: BD56-1845 (protein)
chain 1: QVQLQQWGAGLLKPSETLSLTCVVYGGSFSDYSWSWIRQPPGKGLEWIGEINHSGFTNYNPSLKSRVTISVDTSKNQFSLKVSSVTAADTAVYYCARVSAHRIAVAGTGWFDPWGQGTPVTVSS
chain 2: DIQMTQSPSSLSASVRDRVTITCRASQSISRYLNWYQQKPGKAPKLLIYAASSLQSGVPSRFSGSGSGTDFTLTISSLQPEDCATYYCQQSYETPPVTFGGGTKVEIK
B12: BD56-1847 (protein)
chain 1: EVQLVESGGGLVQPGGSLRLSCAASGFTVSSNYMNWVRQAPGKGLEWVSVMYAGGSTFYADSVKGRFTISRHNSRNTLYLQMNSLRAEDTAVYYCARDAITYGMDVWGQGTTVTVSS
chain 2: DIQMTQSPSSLSASVGDRVTITCRASQSISSDLNWYQQKPGKAPKLLIHAASSLQSGVPSRFSGSGSGTDFTLTISSLQPEDFATYFCQQSYSTPPVTFGGGTKVDIK

Each binder was assayed against SARS-CoV-2 Omicron BA.1 spike pseudovirus (assay: pseudovirus neutralization IC50; higher = weaker neutralization).
Description: (§1)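 Single-round VSV luciferase pseudovirus mixed with antibody dilutions for 1 h and put on Huh-7 cells for about a day; IC50 from the dose curve.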

Binder | pseudovirus neutralization IC50
B1 | > 10 µg/mL
B2 | 0.0198 µg/mL
B3 | 0.198 µg/mL
B4 | 0.0881 µg/mL
B5 | 0.0111 µg/mL
B6 | 0.681 µg/mL
B7 | 0.0101 µg/mL
B8 | > 10 µg/mL
B9 | 5.41 µg/mL
B10 | 0.0478 µg/mL
B11 | > 10 µg/mL
B12 | 0.00465 µg/mL

What follows are binders tested against SARS-CoV-2 Omicron BA.2 spike pseudovirus in the same assay as above.
Description: as §1

Binder | pseudovirus neutralization IC50
B1 | > 10 µg/mL
B2 | 0.0182 µg/mL
B3 | 0.285 µg/mL
B4 | 0.105 µg/mL
B5 | 0.0285 µg/mL
B6 | 0.625 µg/mL
B7 | 0.00558 µg/mL
B8 | > 10 µg/mL
B9 | 0.00126 µg/mL
B10 | 0.0141 µg/mL
B11 | > 10 µg/mL
B12 | 0.00642 µg/mL

What follows are binders tested against SARS-CoV-2 Omicron BA.2.75 spike pseudovirus in the same assay as above.
Description: as §1

Binder | pseudovirus neutralization IC50
B1 | > 10 µg/mL
B2 | 0.0221 µg/mL
B3 | 0.368 µg/mL
B4 | 0.147 µg/mL
B5 | 0.00761 µg/mL
B6 | 0.402 µg/mL
B7 | 0.00279 µg/mL
B8 | > 10 µg/mL
B9 | 3.87 µg/mL
B10 | 0.0117 µg/mL
B11 | > 10 µg/mL
B12 | > 10 µg/mL

These binders were tested against SARS-CoV-2 Omicron BA.5 spike pseudovirus in the same assay as above.
Description: as §1

Binder | pseudovirus neutralization IC50
B1 | > 10 µg/mL
B2 | 2.37 µg/mL
B3 | 0.835 µg/mL
B4 | 4.91 µg/mL
B5 | > 10 µg/mL
B6 | 0.195 µg/mL
B7 | > 10 µg/mL
B8 | > 10 µg/mL
B9 | 0.00901 µg/mL
B10 | > 10 µg/mL
B11 | > 10 µg/mL
B12 | 0.298 µg/mL

The binders below were run against SARS-CoV-2 Omicron BQ.1.1 spike pseudovirus in the same assay as above.
Description: as §1

Binder | pseudovirus neutralization IC50
B1 | > 10 µg/mL
B2 | > 10 µg/mL
B3 | 0.813 µg/mL
B4 | > 10 µg/mL
B5 | > 10 µg/mL
B6 | > 10 µg/mL
B7 | > 10 µg/mL
B8 | > 10 µg/mL
B9 | > 10 µg/mL
B10 | > 10 µg/mL
B11 | > 10 µg/mL
B12 | > 10 µg/mL

Each binder was assayed against SARS-CoV-2 Omicron XBB spike pseudovirus in the same assay as above.
Description: as §1

Binder | pseudovirus neutralization IC50
B1 | > 10 µg/mL
B2 | > 10 µg/mL
B3 | > 10 µg/mL
B4 | > 10 µg/mL
B5 | > 10 µg/mL
B6 | > 10 µg/mL
B7 | > 10 µg/mL
B8 | > 10 µg/mL
B9 | > 10 µg/mL
B10 | > 10 µg/mL
B11 | > 10 µg/mL
B12 | > 10 µg/mL

Each binder was assayed against SARS-CoV-2 early D614G spike pseudovirus in the same assay as above.
Description: as §1

Binder | pseudovirus neutralization IC50
B1 | > 10 µg/mL
B2 | 0.00671 µg/mL
B3 | 0.211 µg/mL
B4 | 0.371 µg/mL
B5 | 0.00201 µg/mL
B6 | 0.474 µg/mL
B7 | 0.00495 µg/mL
B8 | > 10 µg/mL
B9 | 0.0457 µg/mL
B10 | 0.00462 µg/mL
B11 | 0.155 µg/mL
B12 | 0.0688 µg/mL
